Measured values from several laboratories, pooled; numbers as filed in NIAID ChemDB.

Shared fields: tests on isolated targets; organism: HIV-1; protein: Protease; measure: IC50

An empty or dashed field is not shown. ICn is the concentration giving n% inhibition. Rows are shuffled and stem from different studies.

| compound | changes | method | value |
|---|---|---|---|
| CC(C)c1nc(CN(C)C(=O)N[C@H](C(=O)NN(Cc2ccoc2)C[C@H](O)[C@H](Cc2ccccc2)NC(=O)OCc2cncs2)C(C)C)cs1 | - | fluorescence | <0.0005 µM |
| COC(=O)[C@H](C)NC(=O)[C@H](CC(C)C)NC(=O)[C@H](Cc1ccccc1)NC(=O)[C@@H]1O[C@@H](C(=O)N[C@@H](Cc2ccccc2)C(=O)N[C@@H](CC(C)C)C(=O)N[C@@H](C)C(=O)OC)[C@@H](O)[C@@H]1O | - | - | >2 µM |
| COc1cc(O)cc(O)c1C(=O)/C=C/c1ccc(O)cc1 | - | HPLC | >100 µM |
| NS(=O)(=O)c1ccc(NC(=O)c2ccccc2SSc2ccccc2C(=O)Nc2ccc(S(N)(=O)=O)cc2)cc1 | - | - | 8.4 µM |
| CCC(C)[C@H](NC(=O)C1CCCN1)C(=O)N[C@@H](Cc1ccccc1)[C@H](O)CN(CC(C)C)S(=O)(=O)c1ccc2c(c1)OCO2 | - | - | 0.003 µM |
| C=C1C[C@]2(C)C(C/C(=C\O)C3[C@@H]([C@@]4(C)CCCC(C)(C)O4)CC[C@]32C)[C@@]2(C)C/C(=C(/O)C(=O)O)C(C)(C)C12 | - | HPLC | 10 µM |
| CC(C)c1nc(CN(C)C(=O)N[C@H](C(=O)NN(Cc2ccccc2)C[C@H](O)[C@H](Cc2ccccc2)NC(=O)OCc2ccccc2)C(C)C)co1 | - | fluorescence | <0.0005 µM |
| CC(C)(C)OC(=O)N[C@@H](CC(N)=O)C(=O)N[C@@H](Cc1ccccc1)[C@@H](O)C(=O)NCC1CCCCC1 | - | - | <1000 µM |
| CCCCC(CC(=O)[C@H](CCCC)NC(=O)c1cnc2ccccc2n1)C(=O)N[C@@H](CCC(N)=O)C(=O)N[C@@H](CCCN=C(N)N)C(N)=O | - | fluorescence | >10 µM |
| CON[C@H](C(=O)NC(=O)[C@H]1N(C(=O)[C@@H](O)[C@H](Cc2ccccc2)NC(=O)[C@@H](NC(=O)[C@H](Cc2ccccc2)NC(C)=O)C(C)C)CSC1(C)C)C(C)C | PR-V82F | - | 0.016 µM |
| CC(C)[C@H](NC(=O)[C@H](Cc1ccccc1)NC(=O)[C@@H]1O[C@@H](C(=O)N[C@@H](Cc2ccccc2)C(=O)N[C@H](C(=O)NCc2ccccn2)C(C)C)[C@@H](OCc2ccccc2)[C@@H]1OCc1ccccc1)C(=O)NCc1ccccn1 | - | - | >2 µM |
| Cc1ccc(S(=O)(=O)N[C@@H](C)C(=O)N[C@H](C(=O)N[C@@H](Cc2ccccc2)[C@@H](O)[C@H](O)[C@H](Cc2ccccc2)NC(=O)[C@@H](NC(=O)[C@H](C)NS(=O)(=O)c2ccc(C)cc2)C(C)C)C(C)C)cc1 | - | - | 0.005 µM |
| CC(C)(C)NC(=O)[C@H]1CCCN1C(=O)[C@@H](Cc1ccccc1)N(O)C(=O)[C@H](Cc1ccccc1)NC(=O)OCC1c2ccccc2-c2ccccc21 | - | HPLC | 2.52 µM |
| CC[C@@H](C)[C@H](NC(=O)[C@@H]1CCCN1C(=O)[C@@H](O)[C@H](Cc1ccccc1)NC(=O)[C@H](CC(=O)N(C)C)NC(=O)CCc1ccccc1)C(=O)N[C@H](C(N)=O)C(C)C | - | - | >5 µM |
| O=C(OC1C(OC(=O)c2cc(O)c(O)c(O)c2Oc2cc3c(c(O)c2O)-c2c(cc(O)c(O)c2O)C(=O)OC2C(CC3=O)C(O)OC3COC(=O)c4cc(O)c(O)c(O)c4-c4c(cc(O)c(O)c4O)C(=O)OC32)C(O)OC2COC(=O)c3cc(O)c(O)c(O)c3-c3c(cc(O)c(O)c3O)C(=O)OC21)c1cc(O)c(O)c(O)c1 | - | HPLC | 0.9 µM |
| CC(C)[C@H](NC(=O)Oc1ccccc1)C(=O)N[C@@H](Cc1ccccc1)[C@@H](O)[C@H](O)[C@H](Cc1ccccc1)NC(=O)[C@@H](NC(=O)[C@H](C)NC(=O)Oc1ccccc1)C(C)C | - | - | 0.017 µM |
| CCCC[C@H](NC(=O)c1cnc2ccccc2n1)C(=O)CC(Cc1ccc2ccccc2c1)C(=O)N[C@@H](CCC(N)=O)C(N)=O | - | fluorescence | >10 µM |
| COc1cc(O)cc(O)c1C(=O)[C@@H]1[C@H](CC=C(C)C)C(C)=CC[C@H]1c1ccc(O)cc1 | - | HPLC | >100 µM |
| CC(C)[C@H](NC(=O)[C@H](C)NC(=O)c1ccccc1)C(=O)N[C@@H](Cc1ccccc1)C(O)C(O)[C@H](Cc1ccccc1)NC(=O)[C@@H](NC(=O)[C@H](C)NC(=O)c1ccccc1)C(C)C | - | - | 0.017 µM |
| CC[C@H](C)[C@@H](C(=O)N[C@H](C(N)=O)C(C)C)N(C)C(=O)[C@@H]1CCCN1C(=O)[C@@H](O)[C@H](Cc1ccccc1)NC(=O)[C@H](CC(N)=O)NC(=O)CCc1ccccc1 | - | - | >5 µM |
| CC(C)(C)NC(=O)[C@H]1CCCN1C(=O)[C@H](Cc1ccccc1)N(O)C(=O)[C@H](Cc1ccccc1)NC(=O)OC(C)(C)C | - | HPLC | 0.73 µM |
| CC(=O)N[C@@H](Cc1ccccc1)C(=O)N[C@@H](CC(C)C)C(=O)N[C@@H](CC(C)C)[C@@H](O)CC(=O)N[C@@H](CC(C)C)C(=O)N[C@@H](Cc1ccccc1)C(N)=O | - | - | ~10 µM |
| CON[C@H](C(=O)NC(=O)[C@H]1N(C(=O)[C@@H](O)[C@H](Cc2ccccc2)NC(=O)[C@@H](NC(=O)[C@H](Cc2c[nH]c3ccccc23)NC(C)=O)C(C)C)CSC1(C)C)C(C)C | - | - | 0.018 µM |
| CCCC[C@H](NC(=O)[C@@H](NC(=O)[C@@H](NC(=O)c1ccc2ccccc2n1)[C@@H](C)O)[C@@H](C)CC)C(O)CC(Cc1ccc2ccccc2c1)C(=O)N[C@@H](CCC(N)=O)C(=O)N[C@@H](CCCN=C(N)N)C(N)=O | - | fluorescence | 0.037 µM |
| CC(C)c1nc(CN(C)C(=O)N[C@H](C(=O)N[C@@H](Cc2ccccc2)[C@@H](O)CN(Cc2ccccc2)NC(=O)OC(C)(C)C)C(C)C)co1 | - | fluorescence | <0.0005 µM |
| COC(=O)N[C@H](C(=O)N[C@@H](Cc1ccccc1)[C@@H](O)CN(Cc1ccc(OC)cc1)NC(=O)[C@@H](NC(=O)OC)C(C)C)C(C)C | - | substrate cleavage | 0.016 µM |
| CC(C)[C@H](NC(=O)[C@H](C)NC(=O)c1cccnc1)C(=O)N[C@@H](Cc1ccccc1)C(O)C(O)[C@H](Cc1ccccc1)NC(=O)[C@@H](NC(=O)[C@H](C)NC(=O)c1cccnc1)C(C)C | - | - | 0.011 µM |
| CC(C)c1nc(CN(C)C(=O)N[C@H](C(=O)NN(Cc2ccccc2)C[C@H](O)[C@H](Cc2ccccc2)NC(=O)OCc2cncs2)C(C)C)co1 | - | fluorescence | <0.0005 µM |
| CC(C)C(CO)NC(=O)[C@@H]1CSCN1C(=O)[C@@H](O)[C@H](Cc1ccccc1)NC(=O)[C@H](CS(C)(=O)=O)NC(=O)COc1cccc2ccccc12 | - | - | <0.05 µM |
| COC(=O)N[C@H](C(=O)N[C@@H](Cc1ccccc1)[C@@H](O)CN(Cc1ccc(C(F)(F)F)cc1)NC(=O)[C@@H](NC(=O)OC)C(C)C)C(C)C | - | substrate cleavage | 0.033 µM |
| CC(C)C[C@H](NC(=O)[C@H](Cc1ccccc1)NC(=O)[C@@H]1O[C@@H](C(=O)N[C@@H](Cc2ccccc2)C(=O)N[C@@H](CC(C)C)C(=O)Nc2ccccc2)[C@@H](O)[C@@H]1O)C(=O)Nc1ccccc1 | - | - | >2 µM |
| COC(=O)N[C@H](C(=O)N[C@@H](Cc1ccccc1)[C@@H](O)CN(Cc1ccc(F)cc1)NC(=O)[C@@H](NC(=O)OC)C(C)C)C(C)C | - | substrate cleavage | 0.042 µM |
| CC(C)(C)NC(=O)[C@H]1N(C(=O)[C@@H](O)[C@H](Cc2ccccc2)NC(=O)[C@H](CC(N)=O)NC(=O)COc2ccccc2-c2ccccc2)CSC1(C)C | - | - | <0.05 µM |
| CC(C)[C@H](NC(=O)OC(C)(C)C)C(=O)N[C@@H](Cc1ccccc1)C(=O)NC[C@@H]1O[C@@H](CNC(=O)[C@H](Cc2ccccc2)NC(=O)[C@H](NC(=O)OC(C)(C)C)C(C)C)[C@@H](O)[C@@H]1O | - | - | >2 µM |
| COC(=O)N[C@H](C(=O)N[C@@H](Cc1ccccc1)[C@@H](O)CN(Cc1ccc(C#N)cc1)NC(=O)[C@@H](NC(=O)OC)C(C)C)C(C)C | - | substrate cleavage | 0.062 µM |
| C=C1C[C@]2(C)C(CC(=O)C3[C@@H]([C@@]4(C)CCCC(C)(C)O4)CC[C@]32C)[C@@]2(C)CCC(=O)C(C)(C)C12 | - | HPLC | >218 µM |
| CCCC[C@H](NC(=O)c1ccc2ccccc2n1)C(=O)CC(Cc1ccc2ccccc2c1)C(=O)N[C@@H](CCC(N)=O)C(=O)N[C@@H](CCCN=C(N)N)C(N)=O | - | fluorescence | 1.44 µM |
| CCCC[C@H](NC(=O)[C@H](C)NC(=O)[C@H](CCC(=O)O)NC[C@H](Cc1ccccc1)NC(=O)[C@H](CC(C)C)NC(=O)[C@@H](NC(=O)[C@@H](N)CCCN=C(N)N)C(C)C)C(N)=O | - | HPLC | <0.075 µM |
| Cc1c(O)cccc1C(=O)N[C@@H](Cc1ccccc1)C(=O)N(O)CC(=O)N[C@@H](Cc1ccccc1)C(=O)NC(C)(C)C | - | HPLC | 2.2 µM |
| CC(C)C[C@H](NC(=O)C(NC(=O)[C@@H](N)C(C)C)c1cc(O)cc(O)c1)C(=O)N[C@H](Cc1ccccc1)C(=O)C(=O)N[C@H](C(=O)N[C@H](C(=O)N[C@@H](CC(=O)O)C(=O)O)C(C)C)C(C)C | - | HPLC | 0.26 µM |
| CC(=O)N[C@@H](Cc1ccccc1)C(=O)N[C@H](C(=O)N[C@@H](CC(C)C)[C@@H](O)CC(=O)N[C@@H](CC(C)C)C(=O)N[C@@H](Cc1ccccc1)C(N)=O)C(C)C | - | - | 0.09 µM |
| CC(C)[C@H](N)C(=O)N[C@H](C(=O)N[C@@H](Cc1ccccc1)[C@H](O)C(=O)N[C@@H](Cc1ccccc1)C(=O)N[C@H](C(=O)N[C@H](C(N)=O)C(C)C)C(C)C)C(C)C | - | - | <5 µM |
| CC(=O)N[C@@H](Cc1ccc(O)cc1)C(=O)N[C@H](C(=O)N[C@@H](CC(C)C)[C@@H](O)CC(=O)N[C@@H](CC(C)C)C(=O)N[C@@H](Cc1ccccc1)C(N)=O)C(C)C | - | - | 0.043 µM |
| CC(C)c1nc(CN(C)C(=O)N[C@H](C(=O)NN(Cc2cccc(O)c2)C[C@H](O)[C@H](Cc2ccccc2)NC(=O)OCc2cncs2)C(C)C)cs1 | - | fluorescence | ~0.0005 µM |
| C=C1C[C@]2(C)C(C/C(=C\O)C3[C@@H]([C@@]4(C)CCCC(C)(C)O4)CC[C@]32C)[C@@]2(C)C/C(=C(/O)C(=O)OC)C(C)(C)C12 | - | HPLC | >198 µM |
| CC(C)c1nc(COC(=O)N[C@H](C(=O)N[C@@H](Cc2ccccc2)[C@@H](O)CN(Cc2ccc(O)cc2)NC(=O)OC(C)(C)C)C(C)C)co1 | - | fluorescence | <0.0005 µM |
| CC(=O)N[C@@H](Cc1ccc(N)cc1)C(=O)N[C@H](C(=O)N[C@@H](CC(C)C)[C@@H](O)CC(=O)N[C@@H](CC(C)C)C(=O)N[C@@H](Cc1ccccc1)C(N)=O)C(C)C | - | - | 0.08 µM |
| CC(C)(C)NC(=O)[C@H]1CCCN1C(=O)CN(O)C(=O)[C@H](Cc1ccccc1)NC(=O)OCC1c2ccccc2-c2ccccc21 | - | HPLC | 1.33 µM |